{
  "source": "patent US20230364121A1",
  "about": "(priority 2020, published 2023)",
  "tested_on": "SARS-CoV-2 viral genome",
  "test": "Mutagenic effect: deep sequencing of viral RNA after the antiviral assay",
  "format": "cell-based",
  "conditions": "5 μM; for Number of Mutations Detected: replicates 1 and 2",
  "note": "“And” between values parts separate entries of the source, which are not always exact repeats. Equal values may be shown once.",
  "data": [
    {"smiles": "CC(C)C(=O)OC[C@H]1O[C@@H](n2ccc(NO)nc2=O)C(O)C1O", "note": "(some centres unmarked)", "values": [
      {"measurement": "Mean Number of Mutations Detected", "setting": "Frequency Threshold >0.1%", "value": 2821},
      {"measurement": "Number of Mutations Detected", "setting": "Frequency Threshold >0.1%", "value": "2818 and 2824"},
      {"measurement": "Mean Number of Mutations Detected", "setting": "Frequency Threshold >0.2%", "value": 208},
      {"measurement": "Number of Mutations Detected", "setting": "Frequency Threshold >0.2%", "value": "231 and 185"},
      {"measurement": "Mean Number of Mutations Detected", "setting": "Frequency Threshold >0.5%", "value": 35},
      {"measurement": "Number of Mutations Detected", "setting": "Frequency Threshold >0.5%", "value": "36 and 34"},
      {"measurement": "Mean Number of Mutations Detected", "setting": "Frequency Threshold >1%", "value": 21.5},
      {"measurement": "Number of Mutations Detected", "setting": "Frequency Threshold >1%", "value": "24 and 19"}
    ]}
  ]
}
